# Source: patent US20070081573A1, “Process for inhibiting biofilm formation on and/or removing biofilm from an enhanced tube” (Ashland Licensing and Intellectual Property LLC, priority 2005, published 2007)
# Test system: pseudomonas aerigenosa (ATCC 27853) biofilm
# Assay: Biofouling test on enhanced tube and smooth tube in laboratory scale cooling tower system (modified P-U-L-S-E fouling monitor)
# Assay type: cell-based
substance,measurement,setting,value
chlorine,fouling factors on both tubes,"chlorine slugged over 4 hour period/day to ORP +450 mV from 13th day, after 12 days of Dispersant A 150 ppm daily",dropped
same,reduction of biofilm deposits (summary of test results),"used alone, smooth tubes and enhanced tubes",not effective alone
